A mixed list of measured activities; the numbers were collected in NIAID ChemDB.

All rows: whole-cell or culture tests; agent: Mycobacterium avium complex; endpoint: MIC

a–b is a range or a potency band. Blank or dashed fields: not listed here. Neighbouring rows are from separate reports.

smiles	strain	value
CCSCCC(N)C(=O)O	TMC1463 (serovar 4)	>100 µg/mL
CC1CN(c2c(F)c(N)c3c(=O)c(C(=O)O)cn(C4CC4)c3c2F)CCN1C	1760694	8 µg/mL
Cc1cc(NS(=O)(=O)c2ccc(N)cc2)no1	11 strains	≥100 µg/mL
Cc1c(CN2CCN(C)CC2)cc(-c2ccc(Cl)cc2)n1-c1ccc(Cl)cc1	103317	0.4 µg/mL
CC[C@@H](CO)NCCN[C@@H](CC)CO	TMC1463 (serovar 4)	5 µg/mL
CO[C@H]1/C=C/O[C@@]2(C)Oc3c(C)c(O)c4c(O)c(c5c(c4c3C2=O)NC2(CCN(CC(C)C)CC2)N=5)=NC(=O)/C(C)=C\C=C\[C@H](C)[C@H](O)[C@@H](C)[C@@H](O)[C@@H](C)[C@H](OC(C)=O)[C@@H]1C	31F093T	1.25 µg/mL
CCCCCCn1c(C)cc(CN2CCN(C)CC2)c1C	103317	16 µg/mL
NCCC(O)C(N)CC(=O)NC1CNC(=O)C(C2CCN=C(N)N2)NC(=O)/C(=C/NC(N)=O)NC(=O)C(CO)NC(=O)C(CO)NC1=O	Isolate 53	6.25 µg/mL
CC1CCN(c2c(F)cc3c(=O)c(C(=O)O)cn(C4CC4)c3c2F)C1	1172733	2 µg/mL
c1ccc(CSc2nc3ccccc3[nH]2)cc1	MY330/88	>125 µM
CO[C@H]1/C=C/O[C@@]2(C)Oc3c(C)c(O)c4c(O)c(c(/C=N/N5CCN(C)CC5)c(O)c4c3C2=O)NC(=O)/C(C)=C\C=C\[C@H](C)[C@H](O)[C@@H](C)[C@@H](O)[C@@H](C)[C@H](OC(C)=O)[C@@H]1C	3212	1 µg/mL
N[C@@H]1CN(c2c(F)cc3c(=O)c(C(=O)O)cn([C@@H]4C[C@@H]4F)c3c2Cl)CC12CC2	-	0.25–8 µg/mL
CO[C@H]1/C=C/O[C@@]2(C)Oc3c(C)c(O)c4c(O)c(c(/C=N/N5CCN(C)CC5)c(O)c4c3C2=O)NC(=O)/C(C)=C\C=C\[C@H](C)[C@H](O)[C@@H](C)[C@@H](O)[C@@H](C)[C@H](OC(C)=O)[C@@H]1C	101	16 µg/mL
CN1CC2CCC1CN2c1c(F)cc2c(=O)c(C(=O)O)cn(C3CC3)c2c1F	1172733	1 µg/mL
CN[C@@H]1[C@H](O[C@H]2[C@H](O[C@H]3[C@H](O)[C@@H](O)[C@H](N=C(N)N)[C@@H](O)[C@@H]3N=C(N)N)O[C@@H](C)[C@]2(O)C=O)O[C@@H](CO)[C@H](O)[C@H]1O	13016 (serotype 4)	0.8 µg/mL
Cc1[nH]c(-c2ccc(Cl)cc2)cc1CN1CCN(C)CC1	103317	>64 µg/mL
CO[C@H]1/C=C/O[C@@]2(C)Oc3c(C)c(O)c4c(O)c(c(/C=N/N5CCN(C)CC5)c(O)c4c3C2=O)NC(=O)/C(C)=C\C=C\[C@H](C)[C@H](O)[C@@H](C)[C@@H](O)[C@@H](C)[C@H](OC(C)=O)[C@@H]1C	CIPT 140310005	0.1 µg/mL
CO[C@H]1/C=C/O[C@@]2(C)Oc3c(C)c(O)c4c(O)c(c5c(c4c3C2=O)NC2(CCN(CC(C)C)CC2)N=5)=NC(=O)/C(C)=C\C=C\[C@H](C)[C@H](O)[C@@H](C)[C@@H](O)[C@@H](C)[C@H](OC(C)=O)[C@@H]1C	Isolate A	0.06 µg/mL
O=C(O)c1cn(C2CC2)c2c(F)c(N3CCS(=O)CC3)c(F)cc2c1=O	1988557	4 µg/mL
Cc1c(CN2CCOCC2)c(CN2CCOCC2)c(-c2ccc(Cl)cc2)n1Cc1ccccc1	103317	>64 µg/mL
Brc1ccc(CSc2nc3ccccc3[nH]2)cc1	MY330/88	>62 µM
NCC[C@H](O)C(=O)N[C@@H]1C[C@H](N)[C@@H](O[C@H]2O[C@H](CN)[C@@H](O)[C@H](O)[C@H]2O)[C@H](O)[C@H]1O[C@H]1O[C@H](CO)[C@@H](O)[C@H](N)[C@H]1O	W6506	8 µg/mL
CN[C@@H]1[C@H](O)[C@H](NC)[C@H]2O[C@@]3(O)C(=O)C[C@@H](C)O[C@H]3O[C@@H]2[C@H]1O	ATCC 35718	64 µg/mL
Cc1cc(CN2CCN(C)CC2)c(C)n1C1CCCCC1	103317	>64 µg/mL
CN[C@@H]1[C@@H](O)[C@@H](O[C@@H]2[C@@H](O)[C@H](O[C@H]3O[C@H](CN)CC[C@H]3N)[C@@H](N)C[C@H]2N)OC[C@]1(C)O	ATCC 35718	32 µg/mL
NC[C@H]1O[C@H](O[C@H]2[C@H](O)[C@@H](O[C@H]3O[C@H](CO)[C@@H](O)[C@H](N)[C@H]3O)[C@H](N)C[C@@H]2N)[C@H](O)[C@@H](O)[C@@H]1O	Isolate C-40	≤12.5 µg/mL
O=C(O)c1cn(C2CC2)c2c(F)c(N3CCC(N4CCCC4)C3)c(F)cc2c1=O	1760694	8 µg/mL
C[C@@H]1CN(c2c(F)c(N)c3c(=O)c(C(=O)O)cn(C4CC4)c3c2F)C[C@H](C)N1	-	0.5 µg/mL
O=[N+]([O-])c1ccc(CSc2nc3ccccc3[nH]2)c([N+](=O)[O-])c1	MY330/88	32 µM
CCCCCCn1c(-c2ccc(Cl)cc2)cc(CN2CCOCC2)c1C	103317	16 µg/mL
Fc1cccc(CSc2nc3ccccc3[nH]2)c1	MY330/88	125 µM
Cc1ccc(C)n1C1CCCCC1	103317	>16 µg/mL
CO[C@H]1/C=C/O[C@@]2(C)Oc3c(C)c(O)c4c(O)c(c(/C=N/N5CCN(C6CCCC6)CC5)c(O)c4c3C2=O)NC(=O)/C(C)=C\C=C\[C@H](C)[C@H](O)[C@@H](C)[C@@H](O)[C@@H](C)[C@H](OC(C)=O)[C@@H]1C	Serotype 4	10 µg/mL
CCCSc1nc2ccccc2[nH]1	MY330/88	250 µM
Cc1ccc(C)n1Cc1ccccc1	103317	>16 µg/mL
CC1CN(c2cc3c(cc2F)c(=O)c(C(=O)O)cn3-c2ccc(F)cc2F)CCN1	3214	8 µg/mL
O=C(O)c1cn(C2CC2)c2c(F)c(N3CC4CCCC(C3)N4)c(F)cc2c1=O	1915112	8 µg/mL
CO[C@H]1/C=C/O[C@@]2(C)Oc3c(C)c(O)c4c(=O)c(c5oc6cc(N7CCN(CC(C)C)CC7)cc(=O)c6nc5c4c3=C2O)NC(=O)/C(C)=C\C=C\[C@H](C)[C@H](O)[C@@H](C)[C@@H](O)[C@@H](C)[C@H](OC(C)=O)[C@@H]1C	31F093T	0.07 µg/mL
NNC(=O)c1ccncc1	13034 (serotype 18)	0.8 µg/mL
CC1(CN)CCN(c2c(F)cc3c(=O)c(C(=O)O)cn(C4CC4)c3c2F)C1	PI12/39	32 µg/mL
CO[C@H]1/C=C/O[C@@]2(C)Oc3c(C)c(O)c4c(O)c(c(/C=N/N5CCN(C6CCCC6)CC5)c(O)c4c3C2=O)NC(=O)/C(C)=C\C=C\[C@H](C)[C@H](O)[C@@H](C)[C@@H](O)[C@@H](C)[C@H](OC(C)=O)[C@@H]1C	Isolate A	0.125 µg/mL
c1ccc(CCSc2nc3ccccc3[nH]2)cc1	MY330/88	>125 µM